Pooled drug test results. Numbers come from NIAID ChemDB, via PubChem.

Common to all: toxicity to cultured cells; read-out: CC50

Neighbouring rows are from separate reports. Blank or dashed fields: not listed here. CCn is the concentration with n% toxicity to the cells.

{"structure": "Cc1c(Cl)cccc1-c1nc(=S)[nH][nH]1", "cell line": "Panc-1", "read by": "MTT", "value": ">100 µg/mL"}
{"structure": "O=c1cc(-c2cccc(N3CCN(C(c4ccccc4)c4ccc(Cl)cc4)CC3)c2)c2cccnc2n1O", "cell line": "HeLa", "value": "<100 µM"}
{"structure": "O=[N+]([O-])c1ccc(-c2nc(=S)[nH][nH]2)cc1C(F)(F)F", "cell line": "Panc-1", "read by": "MTT", "value": ">100 µg/mL"}
{"structure": "Cc1cc(C)cc(NC(=O)NOCCCCCC(=O)NO)c1", "cell line": "NFF cells", "read by": "sulforhodamine", "value": "7.7 µM"}
{"structure": "CCOC(=O)c1c(O)c2c(-c3cccc(Br)c3)ccnc2n(O)c1=O", "cell line": "HeLa", "value": "<100 µM"}
{"structure": "C#CCSc1n[nH]c(-c2cccc(C(F)(F)F)c2)n1", "cell line": "A549", "read by": "MTT", "value": ">100 µg/mL"}
{"structure": "O=C(O)c1cc(-c2cccs2)nc2ccccc12", "cell line": "BJ", "value": ">20 µM"}
{"structure": "CCOC(=O)c1c(CS(=O)(=O)c2ccccc2)n(C)c2cc(-c3cccnc3)c(O)c(CN(C)C)c12", "cell line": "Huh7.3", "read by": "ATP", "value": "31 µM"}
{"structure": "O=C1NC(=Nc2ccc(F)c(Cl)c2)S/C1=C\\c1ccc(-c2ccc(C(=O)O)c(O)c2)o1", "cell line": "BAE", "read by": "MTT", "value": "25 µM"}
{"structure": "CC(C)N(Cc1cccc(OCCCCCC(=O)OC(=O)O)c1)C(=O)c1ccc(-c2ccco2)cc1", "cell line": "RAJI", "value": ">20 µM"}
{"structure": "CC1(C)C[C@H](O)C[C@](C)(CNC(=S)c2ccccc2)C1", "cell line": "MDCK", "value": "50 µg/mL"}
{"structure": "COC(=O)CCCC1=NCCc2cc(OC)c(OC)cc21", "cell line": "HEK 293", "value": "<7.5 µM"}
{"structure": "CCOC(=O)/C=C/[C@H](C[C@@H]1CCNC1=O)NC(=O)Nc1cc(OC)cc(OC)c1", "cell line": "H1-HELA", "value": ">10 µM"}
{"structure": "Cc1cccc(C(=S)NC[C@@]2(C)C[C@H](O)CC(C)(C)C2)c1", "cell line": "MDCK", "value": "35 µg/mL"}
{"structure": "CO[C@@H]1[C@H](N(C)C(=O)c2ccccc2)C[C@@]2(C)O[C@]1(C)n1c3ccccc3c3c4c(c5c6ccccc6n2c5c31)C(=O)NC4", "cell line": "ACH2", "read by": "fluorescence", "value": ">5 µM"}
{"structure": "Cc1cc(Cl)ccc1-c1nc(=S)[nH][nH]1", "cell line": "Panc-1", "read by": "MTT", "value": ">100 µg/mL"}
{"structure": "O=C(Cc1ccccc1)Nc1cc(=O)n(O)c2ncccc12", "cell line": "HeLa", "value": "<100 µM"}
{"structure": "C=C(C)C1CC[C@]2(C(=O)O)CC[C@]3(C)C(CCC4[C@@]5(C)C[C@@H](O)[C@H](C(=O)[O-])C(C)(C)C5CC[C@]43C)C12", "cell line": "1A2", "read by": "XTT", "value": "19.8 µg/mL"}
{"structure": "CCOC(=O)c1c(CSc2ccccc2)n(C)c2cc(C#N)c(O)c(CN(N(C)C)N(C)C)c12", "cell line": "Huh7.3", "read by": "ATP", "value": "271.4 µM"}
{"structure": "O=c1cc(N2CCc3ccc(-c4ccc(F)cc4)cc3C2)c2cccnc2n1O", "cell line": "HeLa", "value": "<100 µM"}
{"structure": "CCOC(=O)/C=C/[C@H](CCC(N)=O)NC(=O)c1cc2ccccc2s1", "cell line": "H1-HELA", "value": ">100 µM"}
{"structure": "C=C(C)[C@@H]1CC[C@]2(C(=O)O)CC[C@]3(C)[C@H](CC[C@@H]4[C@@]5(C)CC[C@H](O)C(C)(C)[C@@H]5CC[C@]43C)[C@@H]12", "cell line": "1A2", "read by": "XTT", "value": "27.2 µg/mL"}
{"structure": "Nc1ncnc2c([C@@H]3O[C@H](CSCCC(N)C(=O)O)C[C@H]3O)[nH]nc12", "cell line": "PRK/E6SM", "value": "40 µg/mL"}
{"structure": "C#CCSc1n[nH]c(-c2ccc([N+](=O)[O-])c(C(F)(F)F)c2)n1", "cell line": "Panc-1", "read by": "MTT", "value": ">100 µg/mL"}
{"structure": "CCCCOC(=O)C(N)CCSC[C@H]1O[C@@H](n2ccc3c(N)ncnc32)[C@H](O)[C@@H]1O", "cell line": "PRK/E6SM", "value": "40 µg/mL"}
{"structure": "CCOC(=O)/C=C/[C@H](CCC(N)=O)NC(=O)c1ccc2ccccc2c1", "cell line": "H1-HELA", "value": ">100 µM"}
{"structure": "CSc1nsc(-c2ccc(O)cc2)c1C#N", "cell line": "L929", "value": "2 µM"}
{"structure": "O=[N+]([O-])c1ccc(-c2nc(=S)[nH][nH]2)cc1", "cell line": "Panc-1", "read by": "MTT", "value": ">100 µg/mL"}
{"structure": "Nc1nc2c(ncn2/C=C2/CC2(CO)CO)c(=O)[nH]1", "cell line": "MEF", "value": ">404 µM"}
{"structure": "CC(C)N(Cc1cccc(OCCCCCC(=O)O)c1)C(=O)c1ccc(-c2ccc3c(c2)OCO3)cc1", "cell line": "BJ", "value": ">20 µM"}
{"structure": "Cc1cccc(C(=S)NC[C@@]2(C)C[C@@H](O)CC(C)(C)C2)c1", "cell line": "MDCK", "value": "20 µg/mL"}
{"structure": "O=C1NC(=NCCc2ccc(Cl)c(Cl)c2)S/C1=C\\c1ccc(-c2ccc(C(=O)O)c(O)c2)o1", "cell line": "Ramos", "read by": "MTT", "value": ">100 µM"}
{"structure": "Nc1nc2c(ncn2/C=C2/CC23COP(=O)(O)OC3)c(=O)[nH]1", "cell line": "MEF", "value": "301 µM"}
{"structure": "N=C1Sc2ccccc2C2=NCCCN12", "cell line": "Primary T lymphocytes", "read by": "LDH", "value": ">300 µM"}
{"structure": "CCOC(=O)/C=C/[C@H](C[C@@H]1CCNC1=O)NC(=O)/C=C/c1cc2c(cc1Br)OCO2", "cell line": "H1-HELA", "value": ">100 µM"}
{"structure": "CC1(C)C[C@@H](O)C[C@](C)(CNC(=S)c2cccc(C#N)c2)C1", "cell line": "MDCK", "value": "22 µg/mL"}
{"structure": "CSc1nsc(-c2ccccc2)c1C#N", "cell line": "HELA-OHIO", "value": "80 µM"}
{"structure": "Nc1ncnc2c1ncn2[C@@H]1O[C@H](CSCCC(N)C(=O)O)C[C@H]1O", "cell line": "PRK/E6SM", "value": "200 µg/mL"}
{"structure": "O=c1c(-c2ccccc2)c(O)c2cc(-c3ccccc3-n3cccn3)cnc2n1O", "cell line": "HeLa", "value": "<100 µM"}
{"structure": "CC(C)N(Cc1cccc(OCCCCCC(=O)OC(=O)O)c1)C(=O)c1ccc(-c2cc3ccccc3n2S(=O)(=O)c2ccccc2)cc1", "cell line": "RAJI", "value": ">20 µM"}
{"structure": "COc1ccccc1C(=S)NC[C@@]1(C)C[C@H](O)CC(C)(C)C1", "cell line": "MDCK", "value": "43 µg/mL"}
{"structure": "O=c1c(-c2ccccc2)c(O)c2cc(-c3cccs3)cnc2n1O", "cell line": "HeLa", "value": "<100 µM"}
{"structure": "CC1(C)C[C@@H](O)C[C@](C)(CNC(=O)c2cc(Cl)ccc2O)C1", "cell line": "MDCK", "value": ">100 µg/mL"}
{"structure": "CC(=O)c1cccc(-c2ccc(C(=O)N(Cc3cccc(OCCCCCC(=O)OC(=O)O)c3)C(C)C)cc2)c1", "cell line": "BJ", "value": ">20 µM"}
{"structure": "Nc1ncnc2c([C@H]3C[C@H](O)[C@@H](CO)O3)[nH]nc12", "cell line": "PRK/E6SM", "value": ">400 µg/mL"}
{"structure": "CCc1ccc(CCN=C2NC(=O)/C(=C/c3ccc(-c4ccc(C(=O)O)c(O)c4)o3)S2)cc1", "cell line": "MCF-7", "read by": "MTT", "value": "4.5 µM"}
{"structure": "Fc1ccc(-c2n[nH]c(=S)s2)cc1", "cell line": "Panc-1", "read by": "MTT", "value": ">100 µg/mL"}
{"structure": "COC(=O)c1cc(O)cc(OC)c1C(=O)c1c(O)c(Cl)c(C)c(Cl)c1O", "cell line": "Huh7.5.1", "read by": "MTT", "value": ">50 µM"}
{"structure": "CCOC(=O)/C=C/[C@H](C[C@@H]1CCNC1=O)NC(=O)C1=Cc2cc(Cl)ccc2OC1", "cell line": "H1-HELA", "value": ">100 µM"}
{"structure": "O=C(CCCCCCC(=O)Nc1ccccc1)NO", "cell line": "NFF cells", "read by": "sulforhodamine", "value": "4.9 µM"}
{"structure": "O=c1c2ccccc2c2cccnc2n1O", "cell line": "HeLa", "value": "<100 µM"}
{"structure": "COc1ccc(-c2snc(SC)c2C#N)cc1", "cell line": "L929", "value": "10 µM"}
{"structure": "C=C(C)[C@@H]1CCC2(C(=O)NCCC(=O)OCC)CC[C@]3(C)C(CCC4[C@@](C)(CC#N)C(C(C)(C)C(=O)NCCC(=O)OCC)CC[C@]43C)C12", "cell line": "RD TE32", "read by": "MTT", "value": "72 µM"}
{"structure": "O=c1c(Br)c(O)c2cc(-c3ccncc3)cnc2n1O", "cell line": "HeLa", "value": "<100 µM"}
{"structure": "CCOC(=O)c1c(C)n(C)c2cc(F)c(O)cc12", "cell line": "Huh7.3", "read by": "ATP", "value": "105.7 µM"}

Repeating the final 4 entries:

structure,cell line,read by,value
COc1ccc(-c2snc(SC)c2C#N)cc1,L929,,10 µM
C=C(C)[C@@H]1CCC2(C(=O)NCCC(=O)OCC)CC[C@]3(C)C(CCC4[C@@](C)(CC#N)C(C(C)(C)C(=O)NCCC(=O)OCC)CC[C@]43C)C12,RD TE32,MTT,72 µM
O=c1c(Br)c(O)c2cc(-c3ccncc3)cnc2n1O,HeLa,,<100 µM
CCOC(=O)c1c(C)n(C)c2cc(F)c(O)cc12,Huh7.3,ATP,105.7 µM